Data: PMC10516667, “Structures and implications of the C962R protein of African swine fever virus” (2023)
Only a part of the results on these compounds is given; other tests are left out.

Molecular target: full-length C962R protein (African swine fever virus, UniProt A0A0C5B022)
Conditions: Mg2+, 32-nt poly(T) ssDNA, BS3 crosslinked, pH 7.5; SF3 helicase ATP site, between neighbouring monomers

`Nc1ncnc2c1ncn2[C@@H]1O[C@H](COP(=O)(O)OP(=O)(O)NP(=O)(O)O)[C@@H](O)[C@H]1O` was tested, and the “cryo-EM structure of C962R-DNA-AMPPNP complex” value was “six AMPPNP molecules were captured by the C962R hexamer”.
